Laboratory results from PubChem BioAssay AID720533 (National Center for Advancing Translational Sciences (NCATS), 2013).
This is a selection; strong and weak results do not stand in their true shares. Inconclusive results are not listed. A call without a number means that no potency is given here. Calls of active or inactive are those of the source. Calls come from the whole dose curve; tested in HEK293 cells.

assay: qHTS for Inhibitors of binding or entry into cells for Lassa Virus; details: Lassa virus pseudotyped entry inhibition, cell-based qHTS; series mostly up to 49.2 µM
Potency is the fitted concentration of half-maximal effect.

Row | Structure (SMILES) | Potency
1 | O=[N+]([O-])CC(O)c1ccc([N+](=O)[O-])cc1 (centres undefined) | inactive
2 | NC(=O)Nc1ccc([As](=O)(O)O)cc1 | inactive
3 | CN(CCCl)Cc1cc(Cl)c(NC2=NCCN2)c(Cl)c1 | active: 35.5 µM
4 | CCC(C)(OOC(C)(C)C)OOC(C)(C)C | inactive
5 | CN(C(=O)Cc1ccccc1)[C@H]1CC[C@@]2(CCCO2)C[C@@H]1N1CCCC1 | inactive
6 | Cc1cc([N+](=O)[O-])cc([N+](=O)[O-])c1O | active: 44.7 µM
7 | O=C(OC1CN2CCC1CC2)c1ccccc1 (centres undefined) | inactive
8 | CCNC(C)Cc1ccc2c(c1)OCO2 (centres undefined) | inactive
9 | CC(=O)C1=CCCC2CCC1N2 (centres undefined) | inactive
